# Potato spindle tuber viroid, loop 15: variant abundance in plants

Values reported by Wu et al. 2024 (doi:10.1371/journal.ppat.1012142).

PSTVd intermediate strain, loop 15: wild type GGAAACCGCUACUAC, pool pattern GGAAACCGNNNNNNC; upper and lower strand joined, each 5' to 3', the first 7 letters being the upper strand, closing pairs included.

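A pool of all variants was put on leaves of three Nicotiana benthamiana plants. Samples came from the inoculated region at 5 days, the leaf margin at 10 and upper systemic leaves at 12.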

Numbers give reads per thousand; 0 = not seen among the reads, higher = more abundant.
Each site shows the three plants.
"Pool" is the share in the plasmid pool used as inoculum, on the same scale.
The inoculated region was read from the minus strand, the other sites from the plus strand.

GGAAACCGGACAGAC (pool 0.224) gave inoculated region 0.0983 / 0.0482 / 0.0190; leaf margin 0 / 0.0223 / 0; systemic leaves 0 / 0 / 0.
GGAAACCGUAAGAGC (pool 0.256) gave inoculated region 0.426 / 0.305 / 0.324; leaf margin 0.113 / 0.178 / 0.160; systemic leaves 0.0161 / 0 / 0.
GGAAACCGCCAUCGC (pool 0.304) gave inoculated region 0.0655 / 0.112 / 0.0190; leaf margin 0 / 0 / 0; systemic leaves 0 / 0 / 0.
GGAAACCGUUACAGC (pool 0.288) gave inoculated region 0.147 / 0.161 / 0.133; leaf margin 0 / 0.0223 / 0; systemic leaves 0 / 0 / 0.
GGAAACCGGUUAGCC (pool 0.288) gave inoculated region 0.0328 / 0.177 / 0.0381; leaf margin 0 / 0 / 0.0401; systemic leaves 0.0322 / 0 / 0.
GGAAACCGGAACUGC (pool 0.224) gave inoculated region 0.0328 / 0.112 / 0.0190; leaf margin 0 / 0 / 0.0401; systemic leaves 0 / 0 / 0.
GGAAACCGCGUUUGC (pool 0.160) gave inoculated region 0.0819 / 0.129 / 0.152; leaf margin 0 / 0 / 0.0200; systemic leaves 0.0161 / 0 / 0.
GGAAACCGAGUACCC (pool 0.192) gave inoculated region 0.180 / 0.145 / 0.190; leaf margin 0 / 0.0223 / 0; systemic leaves 0.0161 / 0 / 0.
GGAAACCGAGACCGC (pool 0.336) gave inoculated region 0.0655 / 0.0482 / 0.0762; leaf margin 0 / 0 / 0.0200; systemic leaves 0 / 0 / 0.
GGAAACCGUCACCAC (pool 0.208) gave inoculated region 0.295 / 0.353 / 0.362; leaf margin 0.0970 / 0.111 / 0.140; systemic leaves 0.0483 / 0.0151 / 0.114.
GGAAACCGGUUCGAC (pool 0.160) gave inoculated region 0.0819 / 0.112 / 0.0762; leaf margin 0 / 0 / 0.0200; systemic leaves 0 / 0 / 0.
GGAAACCGAAAUAGC (pool 0.176) gave inoculated region 0.0983 / 0.0803 / 0.0762; leaf margin 0 / 0 / 0; systemic leaves 0 / 0 / 0.
GGAAACCGAUUAGGC (pool 0.320) gave inoculated region 0.197 / 0.193 / 0.114; leaf margin 0 / 0 / 0.0200; systemic leaves 0 / 0 / 0.
GGAAACCGGUCAAUC (pool 0.400) gave inoculated region 0.0655 / 0.0643 / 0.190; leaf margin 0 / 0 / 0.0401; systemic leaves 0 / 0 / 0.
GGAAACCGUAACCGC (pool 0.144) gave inoculated region 0.0819 / 0.0803 / 0.0952; leaf margin 0 / 0 / 0.0601; systemic leaves 0 / 0 / 0.
GGAAACCGUCGUAGC (pool 0.192) gave inoculated region 0.0164 / 0.112 / 0.171; leaf margin 0.0162 / 0.0445 / 0.0401; systemic leaves 0.0161 / 0 / 0.
GGAAACCGUGCCACC (pool 0.272) gave inoculated region 0.0655 / 0.0643 / 0.114; leaf margin 0.0162 / 0 / 0; systemic leaves 0 / 0 / 0.
GGAAACCGUGCGGCC (pool 0.256) gave inoculated region 0.164 / 0.0964 / 0.0571; leaf margin 0 / 0 / 0; systemic leaves 0 / 0 / 0.
GGAAACCGGUAAGAC (pool 0.160) gave inoculated region 0.115 / 0.112 / 0.190; leaf margin 0.0323 / 0 / 0.0401; systemic leaves 0.0322 / 0.0151 / 0.
GGAAACCGUAAGGCC (pool 0.208) gave inoculated region 0.0655 / 0.112 / 0.114; leaf margin 0 / 0 / 0; systemic leaves 0 / 0 / 0.
GGAAACCGGGUUUUC (pool 0.192) gave inoculated region 0.0655 / 0.177 / 0.209; leaf margin 0.0162 / 0 / 0.0200; systemic leaves 0 / 0 / 0.
GGAAACCGUCAGAAC (pool 0.256) gave inoculated region 0.328 / 0.273 / 0.209; leaf margin 0.146 / 0.0668 / 0.120; systemic leaves 0.0805 / 0.121 / 0.0684.
GGAAACCGUUCACGC (pool 0.192) gave inoculated region 0.147 / 0.112 / 0.0952; leaf margin 0 / 0 / 0; systemic leaves 0.0161 / 0 / 0.

The first 2 entries again:

GGAAACCGGACAGAC (pool 0.224) read inoculated region 0.0983 / 0.0482 / 0.0190; leaf margin 0 / 0.0223 / 0; systemic leaves 0 / 0 / 0.
GGAAACCGUAAGAGC (pool 0.256) read inoculated region 0.426 / 0.305 / 0.324; leaf margin 0.113 / 0.178 / 0.160; systemic leaves 0.0161 / 0 / 0.

For reference, wild type rose from 33.9 per thousand in the pool to 202, 200, 159 (inoculated region), 724, 746, 710 (leaf margin) and 856, 883, 880 (systemic leaves).
Samples held 43,870 to 66,106 reads, so the smallest values rest on one or two reads.
Sequences that differ at fixed positions probably stem from PCR or sequencing errors, and defective variants can be carried along by functional ones.